The text below walks through data of PubChem BioAssay AID686977 (Southern Research Specialized Biocontainment Screening …, 2013).

The structures appear in SMILES notation. Some of the results follow. Measured potencies and affinities stand elsewhere. Inconclusive results are not listed. Active and inactive are the calls of the source. The rule behind the calls is not given here.

The assay is described as follows: Vibrio cholerae quorum sensing activators, luminescence (AID 686977). Particulars: V. cholerae quorum sensing reporter, 6 h, dose 50, dose unit µM, hits give high values.
Consider `O=C(NCC1(N2CCOCC2)CCCCC1)c1cc2ccccc2o1`, for which the luminescence is inactive: 0.
